Data as given in PubChem BioAssay AID504761 (Drosophila RNAi Screening Center, 2011)
Assay: 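Genome-wide fly cell screen for genes dengue virus requires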 (primary screen). Cells: D.Mel-2 cells from Drosophila. Reagents: long dsRNA against Drosophila genes. Treatment: infection with dengue virus type 2; dose and infection time not stated. Measured: 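Per well on two replicate plates, imaging gave the percent of cells positive for viral envelope protein, ranked by infection, and a nuclear count of cells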. Reading the numbers: infection score: higher = more virus-infected cells; cell count: higher = more cells in the well. Call rule: 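Very low infection ranking in both replicate wells (chance probability at most 0.065), then a retest showing infection dropped 1.5-fold or more at p below 0.05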. Meaning of the calls: active = confirmed: knock-down lowers infection; inactive = not picked or not confirmed.
In all, the deposit lists about 22,000 reagents; this is an unselected part of those that have a named target and a result. Over the whole deposit, 116 (0.52%) are marked active. 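Calls depend on retest data that are not deposited; infection was ranked per plate without normalising between plates; the unit of the infection score is not given.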 The raw values are shown without normalisation. Not all columns of the deposit are shown. Not given: the amount of reagent, the time to read-out.

no.	Gene	amplicon	infection score, replicate 1	infection score, replicate 2	cell count, replicate 1	outcome
1	PGAP3	DRSC04989	11.5	32.5	5754	inactive
2	Top3beta	DRSC18724	1.69	5.55	6270	inactive
3	Dhod	DRSC16647	2.31	7.21	6407	inactive
4	Pkd2	DRSC02962	7.09	15.8	4526	inactive
5	Pkd2	DRSC27522	6.23	17.9	6586	inactive
6	CG5250	DRSC15752	1.28	3.16	6584	inactive
7	Vps28	DRSC06168	3.14	13.7	3884	inactive
8	Zip71B	DRSC09686	1.24	2.8	6051	inactive
9	Zip71B	DRSC29491		0.5	321	inactive
10	CG17329	DRSC01926	6.48	3.53	6128	inactive
11	CG17329	DRSC28365	12.4	7.1	5377	inactive

Continued (3 carried over from the part before).
no.	Gene	amplicon	infection score, replicate 1	infection score, replicate 2	cell count, replicate 1	outcome
9	Zip71B	DRSC29491		0.5	321	inactive
10	CG17329	DRSC01926	6.48	3.53	6128	inactive
11	CG17329	DRSC28365	12.4	7.1	5377	inactive
12	CG42583	DRSC22937	3.29	13.8	6225	inactive
13	CG42583	DRSC26327	4.12	1.72	6402	inactive
14	CG12171	DRSC12200	5.43	3.15	6480	inactive
15	CG12171	DRSC25540	3.64	5.97	6757	inactive
16	Sec23	DRSC12387	3.06	3.53	2877	inactive
17	CG9231	DRSC11054	9.24	11.2	6299	inactive
18	CycK	DRSC03714	4.96	13.8	4783	inactive
19	CG12699	DRSC06162	10.8	1.88	5676	inactive
20	CG12699	DRSC25679	2.08	7.09	7030	inactive
21	Mic26-27	DRSC15913	11.4	21.6	6915	inactive
22	Inx3	DRSC14857	5.25	9.31	5887	inactive
23	Inx3	DRSC24037	4.36	9.73	6406	inactive
